Laboratory results reported in patent US20080312080A1 (priority 2006, published 2008).

test system: Aspergillus parasiticus NRRL 2999; experiment: Assay of inhibition activity of aflatoxin production; format: cell-based; conditions: total aflatoxins B1, B2, G1, G2 by ELISA; PD liquid medium, 0 to 20 μg/mL, 3 days at 27° C., triplicate

Compared with “(S)-3-aminooctanoyl-(S)-3-aminooctanoyl-L-alanine”, dioctatin B is 3.6-fold higher in “IC50 (50% inhibition concentration) of aflatoxin production” value (shortened to “IC50 (50% inhibition concentration)”): 1.4 µg/mL for the first, 5.1 µg/mL for the second.

“(S)-3-aminooctanoyl-(S)-3-aminooctanoyl-β-alanine” and dioctatin A are within 1.5-fold of each other in “IC50 (50% inhibition concentration)” value: 3.7 µg/mL for the first, 4.6 µg/mL for the second.

Compared with “(2R,3S)-3-amino-2-methyloctanoyl-(S)-3-aminooctanoyl-glycine”, “(S)-3-aminooctanoyl-(S)-3-aminodecanoyl-glycine” is 1.6-fold lower in “IC50 (50% inhibition concentration)” value: 6.6 µg/mL for the first, 4.0 µg/mL for the second.

First: (S)-3-aminooctanoyl-(S)-3-aminooctanoyl-L-proline
Second: (S)-3-aminooctanoyl-(S)-3-aminooctanoyl-sarcosine
The “IC50 (50% inhibition concentration)” value of the first is 5.8-fold lower: 0.5 µg/mL for the first, 2.9 µg/mL for the second.

In the case of “(S)-3-aminooctanoyl-(S)-3-aminooctanoyl-glycine”, the “IC50 (50% inhibition concentration)” value is reported as 2.5 µg/mL.
